Compound potency records, mixed from different reports. Data source: NIAID ChemDB in PubChem.

Shared fields: cytotoxicity tests; cells: CEM; read-out: CC50

Blank or dashed fields: not listed here. Conditions beyond the fields shown may differ between rows. CCn is the concentration with n% toxicity to the cells.

SMILES | method | value
CC[Si]1(C(C)C)O[C@H]2[C@@H](O)[C@H](c3ccccc3)O[C@@H]2CO[Si](C(C)C)(C(C)C)O1 |  | 15 µg/mL
Nc1nc2c(ncn2COCCO)c(=O)[nH]1 |  | >200 µg/mL
COc1cc(Cc2cnc(/N=C3\C(=O)N(CN4CCN(c5ccc([N+](=O)[O-])cc5)CC4)c4ccc(C)cc43)nc2N)cc(OC)c1OC |  | 37.4 µM
Cc1ccccc1C(=S)Nc1ccc(Cl)c(C(=O)OC(C)C)c1 |  | 73 µM
COc1ccc2c(c1)C(=O)C(C1=C(Cl)C(=O)c3ccccc3C1=O)=C(Cl)C2=O | MTT | 5.7 µM
Cc1ccsc1C(=S)Nc1ccc(Cl)c(C(=O)OC(C(C)C)C(C)C)c1 |  | 73 µM
CC(C)=CCC[C@]1(C)C=Cc2c(ccc3c2C(=O)C(=O)C(C2=C(Cl)C(=O)c4ccccc4C2=O)=C3O)O1 | MTT | 2.7 µM
Cc1ccoc1C(=S)Nc1ccc(Cl)c(C(=O)OC(C)C)c1 |  | 23 µM
Cc1[nH]c2ccc3c(c2c(=O)c1O[C@@H]1O[C@H](CO)[C@@H](O)[C@H](O)[C@H]1O)[C@@H]1CC[C@H](O)[C@@]3(c2ccccc2)O1 | MTT | >100 µM
O=C1c2sc(-c3ccccc3)cc2NS(=O)(=O)N1Cc1ccccc1 |  | >50 µg/mL
Nc1ccc2cc(S(=O)(=O)O)cc(O)c2c1N=Nc1ccc(NC(=O)c2ccc(C(=O)Nc3ccc(N=Nc4c(N)ccc5cc(S(=O)(=O)O)cc(O)c45)c(S(=O)(=O)O)c3)cc2)cc1S(=O)(=O)O |  | 18 µM
Nc1nc(F)nc2c1ncn2[C@@H]1O[C@@H](CO)C=C1F |  | >100 µM
Cc1ccc(C(C)S(=O)(=O)c2c(C)ccc[n+]2[O-])c(C)c1 |  | >100 µg/mL
COC1=C(C2=C(Cl)C(=O)c3ccccc3C2=O)C(=O)c2ccc(OC)cc2C1=O | MTT | 2.9 µM
CC(=O)N[C@H]1OC(CO[Si](C)(C)C(C)(C)C)C2(OS(=O)(=O)C=C2N)C1O[Si](C)(C)C(C)(C)C |  | 8 µM
Cc1cc(S(=O)(=O)n2cccc2)c(Sc2cc(Cl)c(C)cc2S(=O)(=O)n2cccc2)cc1Cl | XTT | >200 µM
CNc1ccc(C)cc1S(=O)(=O)c1ccccc1[N+](=O)[O-] |  | 43.5 µM
Cc1ccc(C)c(CS(=O)c2ccc(Cl)c[n+]2[O-])c1 |  | 31 µg/mL
O=C1c2sc(-c3ccccc3)cc2NS(=O)(=O)N1COCCO |  | 121 µg/mL
Cc1cc(S(=O)(=O)n2cccc2)c(SC/C(=N\NC(=O)Nc2ccccc2)c2ccc(Br)cc2)cc1Cl | XTT | 92.1 µM
CO[C@@H]1[C@H](O)[C@@H](CO)O[C@H]1c1ccccc1 |  | >200 µg/mL
Cc1cc(-c2ccc(N=Nc3ccc4c(S(=O)(=O)O)cc(S(=O)(=O)O)c(N)c4c3O)c(C)c2)ccc1N=Nc1ccc2c(S(=O)(=O)O)cc(S(=O)(=O)O)c(N)c2c1O |  | 57 µM
S=C(Cc1ccccn1)NCCc1ccccc1 |  | >200 µM
CC(=O)N[C@@H]1OC(CO[Si](C)(C)C(C)(C)C)C2(OS(=O)(=O)C=C2N)C1O[Si](C)(C)C(C)(C)C |  | 8 µM
COc1cc(Cc2cnc(/N=C3\C(=O)N(CN4CCN(c5ccccc5)CC4)c4ccc(C)cc43)nc2N)cc(OC)c1OC |  | 121 µM
Cc1cc(S(=O)(=O)n2cccc2)c(SCC(=O)c2ccc(Br)cc2)cc1Cl | XTT | 25.3 µM
O=C(c1ccc(Cl)c(Cl)c1)c1ccc2[nH]c(=O)sc2c1 |  | 6.8 µg/mL
CC(=O)OCCOCN1c2cc(-c3ccccc3)sc2C(=O)N(Cc2ccccc2)S1(=O)=O |  | 37 µg/mL
O=c1ccn([C@H]2O[C@@H](CO)C=C2F)c(=O)[nH]1 |  | >100 µM
CCCCCCCCCCCCCC(=O)NCC(OCC)OCC |  | <200 µM
Cc1ccsc1C(=S)Nc1ccc(Cl)c(/C=N/OC(C)(C)C)c1 |  | 32 µM
CC(C)CS[C@@H]1C=C[C@H](n2cnc3c(N)ncnc32)C1 |  | 18 µg/mL
CC1(C)C=Cc2c(ccc3c2C(=O)C(=O)C(C2=C(I)C(=O)c4ccccc4C2=O)=C3O)O1 | MTT | 6.8 µM
C=C(C)[C@@H]1CC[C@]2(C(=O)NCCCCCCCC(=O)Nc3cccc(C(=O)O)c3)CC[C@]3(C)[C@H](CC[C@@H]4[C@@]5(C)CC[C@H](O)C(C)(C)[C@@H]5CC[C@]43C)[C@@H]12 |  | 2.96 µM
Cc1occc1C(=S)Nc1ccc(Cl)c(/C=N/OCc2ccccc2)c1 |  | >259 µM
C=C(C)[C@@H]1CC[C@]2(C(=O)NCCCCCCCC(=O)N3CCC[C@H]3C(=O)O)CC[C@]3(C)[C@H](CC[C@@H]4[C@@]5(C)CC[C@H](O)C(C)(C)[C@@H]5CC[C@]43C)[C@@H]12 |  | >3 µM
CCC(=O)c1ccc2c(c1)sc(=O)n2Cc1ccccc1 |  | 4.8 µg/mL
O=C1c2cc(-c3ccccc3)sc2N(Cc2ccccc2)S(=O)(=O)N1COCc1ccccc1 |  | >50 µg/mL
Nc1nc(=O)n([C@H]2O[C@@H](CO)C=C2F)cc1F |  | >100 µM
Cc1ccc(C)c(C(Cl)S(=O)(=O)c2cc(C)cc[n+]2[O-])c1 |  | >4 µg/mL
Nc1ccn([C@H]2S[C@@H](CO)C=C2F)c(=O)n1 |  | >100 µM
C=C(C)[C@@H]1CC[C@]2(C(=O)NCCCCCCCC(=O)NCCCCC(=O)O)CC[C@]3(C)[C@H](CC[C@@H]4[C@@]5(C)CC[C@H](O)C(C)(C)[C@@H]5CC[C@]43C)[C@@H]12 |  | >3 µM
COc1cc(Cc2cnc(/N=C3\C(=O)N(CN4CCNCC4)c4ccc(C)cc43)nc2N)cc(OC)c1OC |  | 89.2 µM
Cc1cn([C@@H]2O[C@H](CO[Si](C)(C)C(C)(C)C)[C@@]3(OS(=O)(=O)C=C3N)[C@H]2O[Si](C)(C)C(C)(C)C)c(=O)[nH]c1=O |  | >20 µM
CC1=C(C(=S)Nc2ccc(Cl)c(C=NOC(C)(C)C)c2)CCCO1 |  | 27 µM
O=c1ccn([C@@H]2O[C@@H](CO)C=C2F)c(=O)[nH]1 |  | >100 µM
Nc1nc2c(ncn2[C@H]2C=C[C@@H](CO)C2)c(=O)[nH]1 | XTT | 189 µg/mL
Nc1ncnc2c1ncn2C1OC(CO)C=C1F |  | >100 µM
C/C=C/COc1cc(NC(=S)c2ccoc2C)ccc1Cl |  | 15 µM
O=c1[nH]cnc2c1ncn2[C@H]1O[C@@H](CO)C=C1F |  | >100 µM
Cn1cccc1C(=S)Nc1ccc(Cl)c(/C=N/OC(C)(C)C)c1 |  | 36 µM
C=C(C)[C@@H]1CC[C@]2(C(=O)NCCCC(=O)O)CC[C@]3(C)[C@H](CC[C@@H]4[C@@]5(C)CC[C@H](O)C(C)(C)[C@@H]5CC[C@]43C)[C@@H]12 |  | >3 µM
O=C(c1cccc(F)c1)c1ccc2[nH]c(=O)oc2c1 |  | 9.6 µg/mL
COC1=C(C2=C(C3=C(O)C(=O)c4ccccc4C3=O)C(=O)c3ccccc3C2=O)C(=O)c2ccc3c(c2C1=O)C=CC(C)(C)O3 | MTT | 14.2 µM
Cc1cn([C@@H]2CC[C@H](COC(=O)CCCCCCCCCCCCC(=O)OC[C@H]3O[C@@H](n4cc(C)c(=O)[nH]c4=O)C[C@@H]3N=[N+]=[N-])O2)c(=O)[nH]c1=O |  | >1 µM
COc1cc(Cc2cnc(/N=C3\C(=O)N(CN4CCN(c5cccc(C(F)(F)F)c5)CC4)c4ccc(C)cc43)nc2N)cc(OC)c1OC |  | 118 µM
Cc1cn([C@@H]2OC(O[Si](C)(C)C(C)(C)C)C3(OS(=O)(=O)C=C3NCCC(=O)OCc3ccccc3)C2O[Si](C)(C)C(C)(C)C)c(=O)n(C)c1=O |  | >250 µM
Nc1ccc(N=Nc2ccc(C=Cc3ccc(N=Nc4ccc(N)c5ccc(S(=O)(=O)O)cc45)cc3S(=O)(=O)O)c(S(=O)(=O)O)c2)c2cc(S(=O)(=O)O)ccc12 |  | 43 µM
O=C(c1ccccc1)c1ccc2c(c1)oc(=O)n2Cc1ccccc1 |  | >40 µg/mL
Cc1ccsc1C(=S)Nc1ccc(Cl)c(C(=O)OC2CCCCC2)c1 |  | 37 µM
CC(=O)Nc1ccc(C=Cc2ccc(NC(=O)Nc3ccc(C=Cc4ccc(NC(C)=O)cc4S(=O)(=O)O)c(S(=O)(=O)O)c3)cc2S(=O)(=O)O)c(S(=O)(=O)O)c1 |  | 18 µM
Cc1sccc1C(=S)Nc1ccc(Cl)c(C(=O)OC(C(C)C)C(C)C)c1 |  | 14 µM
Cc1ccc(C)c(CSc2c(Cl)ccc[n+]2[O-])c1 |  | 38 µg/mL

6 of the rows above, restated:

CC[Si]1(C(C)C)O[C@H]2[C@@H](O)[C@H](c3ccccc3)O[C@@H]2CO[Si](C(C)C)(C(C)C)O1 ; value: 15 µg/mL
C=C(C)[C@@H]1CC[C@]2(C(=O)NCCCCCCCC(=O)Nc3cccc(C(=O)O)c3)CC[C@]3(C)[C@H](CC[C@@H]4[C@@]5(C)CC[C@H](O)C(C)(C)[C@@H]5CC[C@]43C)[C@@H]12 ; value: 2.96 µM
S=C(Cc1ccccn1)NCCc1ccccc1 ; value: >200 µM
COc1cc(Cc2cnc(/N=C3\C(=O)N(CN4CCNCC4)c4ccc(C)cc43)nc2N)cc(OC)c1OC ; value: 89.2 µM
COC1=C(C2=C(Cl)C(=O)c3ccccc3C2=O)C(=O)c2ccc(OC)cc2C1=O ; method: MTT ; value: 2.9 µM
O=c1ccn([C@H]2O[C@@H](CO)C=C2F)c(=O)[nH]1 ; value: >100 µM